Data reported in PMC6430785, “Selective binding of a toxin and phosphatidylinositides to a mammalian potassium channel” (Nature Communications, 2019).

What was measured:
[1] = biological target: T1, GIRK2 R201A mutant (mouse, residues 52-380) (Mus musculus, UniProt P48542 52-380, R201A); assay: native MS
T1 sequence: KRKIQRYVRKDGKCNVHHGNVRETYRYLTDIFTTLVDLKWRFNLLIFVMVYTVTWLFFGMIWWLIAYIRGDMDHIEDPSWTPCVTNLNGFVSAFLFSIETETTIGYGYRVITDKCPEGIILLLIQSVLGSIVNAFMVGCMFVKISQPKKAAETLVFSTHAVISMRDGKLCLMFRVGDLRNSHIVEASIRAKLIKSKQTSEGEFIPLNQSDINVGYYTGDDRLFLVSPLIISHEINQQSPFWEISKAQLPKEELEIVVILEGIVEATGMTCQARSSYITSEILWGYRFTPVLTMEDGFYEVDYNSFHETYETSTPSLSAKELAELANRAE

[2] = biological target: T2, Mouse G-protein-gated inward rectifying potassium channel 2 (GIRK2), residues 52-380 (Mus musculus, UniProt P48542 52-380); assay: native MS
T2 construct: also called Kir3.2; KCNJ6; not shown: eGFP, C-terminal, cleaved; StrepII, C-terminal, cleaved; His6, C-terminal, cleaved
T2 sequence (looked up): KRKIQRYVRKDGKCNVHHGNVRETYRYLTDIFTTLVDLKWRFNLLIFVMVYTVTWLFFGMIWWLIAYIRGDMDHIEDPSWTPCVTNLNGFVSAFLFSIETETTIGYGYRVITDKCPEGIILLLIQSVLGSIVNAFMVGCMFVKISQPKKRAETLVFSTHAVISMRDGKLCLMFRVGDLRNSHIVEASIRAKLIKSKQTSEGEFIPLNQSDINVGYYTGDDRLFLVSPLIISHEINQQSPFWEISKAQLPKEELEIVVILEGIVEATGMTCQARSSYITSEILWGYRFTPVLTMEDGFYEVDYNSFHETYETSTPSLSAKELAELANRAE

B1: Tertiapin Q (oxidation resistant form of tertiapin, Met13 mutated to Q) (peptide)
peptide: ALCNCNRIIIPHQCWKKCGKK
binding result [1]: binds
stoichiometry N [2]: 1
